In patent US20240109955A1 (published 2024):

B1: MX834 (trispecific antibody)
chain 1: QTVVTQEPSFSVSPGGTVTLTCGLSSGSVSTAYFPSWYQQTPGQAPRTLIYGTNTRSSGVPDRFSGSILGNKAALTITGAQADDESDYYCVLYMGRGIVVFGGGTKLTVLGGSSGEIVLTQSPGTLSLSPGERATLSCRASQSVSSSYLAWYQQKPGQAPRLLIYSASSRATGIPDRFSGSGSGTDFTLTISRLEPEDFAVYFCQQYVGLTGWTFGQGTKVEIKGGGGSGGSGSGGGGSASGSGQMQLVQSGPEVKKPGTSVKVSCKASGFTFTSSAVQWVRQRQRLEWIGWIVVGSGNTNYAQKFQERVTITRDMSTSTAYMELSSLRSEDTAVYYCAAPNCSNVVCYDGFDIWGQGTMVTVSSGGSSGQVQLVESGGGVVQPGRSLRLSCAASGFTLSSYGMHWVRQAPGKGLEWVAVISYDGSNKYYVDSVKGRFTISRDNSKNTLYLQMNSLRAEDTAVYYCRWAYWELLPDYYYGMDVWGQGTTVTVSSASGGSGDKTHTCPPCPAPELLGGPSVFLFPPKPKDTLMISRTPEVTCVVVDVSHEDPEVKFNWYVDGVEVHNAKTKPREEQYNSYVVSVLTVLHQDWLNGKEYKCKVSNKALPAPIEKTISKAKGQPREPQVYTLPPCRDELTKNQVSLWCLVKGFYPSDIAVEWESNGQPENNYKTTPPVLDSDGSFFKKLTVDKSRWQQGNVFSCSVLHEALHSHYTQKSLSLSPG
chain 2: QTVVTQEPSFSVSPGGTVTLTCGLSSGSVSTAYFPSWYQQTPGQAPRTLIYGTNTRSSGVPDRFSGSILGNKAALTITGAQADDESDYYCVLYMGRGIVVFGGGTKLTVLGGSSGEIVLTQSPGTLSLSPGERATLSCRASQSVSSSYLAWYQQKPGQAPRLLIYSASSRATGIPDRFSGSGSGTDFTLTISRLEPEDFAVYFCQQYVGLTGWTFGQGTKVEIKGGGGSGGSGSGGGGSASGSGQMQLVQSGPEVKKPGTSVKVSCKASGFTFTSSAVQWVRQRQRLEWIGWIVVGSGNTNYAQKFQERVTITRDMSTSTAYMELSSLRSEDTAVYYCAAPNCSNVVCYDGFDIWGQGTMVTVSSGGSSGQVQLVESGGGVVQPGRSLRLSCAASGFTLSSYGMHWVRQAPGKGLEWVAVISYDGSNKYYVDSVKGRFTISRDNSKNTLYLQMNSLRAEDTAVYYCRWAYWELLPDYYYGMDVWGQGTTVTVSSASGGSGDKTHTCPPCPAPELLGGPSVFLFPPKPKDTLMISRTPEVTCVVVDVSHEDPEVKFNWYVDGVEVHNAKTKPREEQYNSYVVSVLTVLHQDWLNGKEYKCKVSNKALPAPIEKTISKAKGQPREPQVYTLPPCRDELTKNQVSLWCLVKGFYPSDIAVEWESNGQPENNYKTTPPVLDSDGSFFKKLTVDKSRWQQGNVFSCSVLHEALHSHYTQKSLSLSPG
B2: MX835 (trispecific antibody)
chain 1: QTVVTQEPSFSVSPGGTVTLTCGLSSGSVSTAYFPSWYQQTPGQAPRTLIYGTNTRSSGVPDRFSGSILGNKAALTITGAQADDESDYYCVLYMGRGIVVFGGGTKLTVLGGSSGEIVLTQSPGTLSLSPGERATLSCRASQSVSSSYLAWYQQKPGQAPRLLIYSASSRATGIPDRFSGSGSGTDFTLTISRLEPEDFAVYFCQQYGGLTGWTFGQGTKVEIKGGGGSGGSGSGGGGSASGSGQMQLVQSGPEVKKPGTSVKVSCKASGFTFTSSAVQWVRQRQRLEWIGWIVVGSGNTNYAQKFQERVTITRDMSTSTAYMELSSLRSEDTAVYYCAAPNCSNVVCYDGFDIWGQGTMVTVSSGGSSGQVQLVESGGGVVQPGRSLRLSCAASGFTLSSYGMHWVRQAPGKGLEWVAVISYDGSNKYYVDSVKGRFTISRDNSKNTLYLQMNSLRAEDTAVYYCRWAYWELLPDYYYGMDVWGQGTTVTVSSASGGSGDKTHTCPPCPAPELLGGPSVFLFPPKPKDTLMISRTPEVTCVVVDVSHEDPEVKFNWYVDGVEVHNAKTKPREEQYNSYVVSVLTVLHQDWLNGKEYKCKVSNKALPAPIEKTISKAKGQPREPQVYTLPPCRDELTKNQVSLWCLVKGFYPSDIAVEWESNGQPENNYKTTPPVLDSDGSFFKKLTVDKSRWQQGNVFSCSVLHEALHSHYTQKSLSLSPG
chain 2: EIVLTQSPGTLSLSPGERATLSCRASQSVSSSYLAWYQQKPGQAPRLLIYSASSRATGIPDRFSGSGSGTDFTLTISRLEPEDFAVYFCQQYGGLTGWTFGQGTKVEIKGGSSGDIQMTQSPSSVSASVGDRVIITCRASQGISSWLAWYQQKPGKAPKVLIYDASSLQSGVPSRFSGSGYGTDFTLTISSLQPEDSATYYCQQAKSFPITFGQGTRLEIKGGGGSGGSGSGGGGSASGSGQVQLVESGGGVVQPGRSLRLSCAASGFTFSSYAFHWVRQAPGKGLEWVAVISYDGSNQYYADSVKGRFTISRDNSKNTLYLQMNSLRADDTAVYYCARDLAIAVAGTWHYYNGMDVWGQGTTVTVSSGGSSGQMQLVQSGPEVKKPGTSVKVSCKASGFTFTSSAVQWVRQRQRLEWIGWIVVGSGNTNYAQKFQERVTITRDMSTSTAYMELSSLRSEDTAVYYCAAPNCSNVVCYDGFDIWGQGTMVTVSSASGGSGDKTHTCPPCPAPELLGGPSVFLFPPKPKDTLMISRTPEVTCVVVDVSHEDPEVKFNWYVDGVEVHNAKTKPREEQYNSYVVSVLTVLHQDWLNGKEYKCKVSNKALPAPIEKTISKAKGQPREPQVCTLPPSRDELTKNQVSLSCAVKGFYPSDIAVEWESNGQPENNYKTTPPVLDSDGSFFLVSKLTVDKSRWQQGNVFSCSVLHEALHSHYTQKSLSLSPG
B3: MX837 (trispecific antibody)
chain 1: QTVVTQEPSFSVSPGGTVTLTCGLSSGSVSTAYFPSWYQQTPGQAPRTLIYGTNTRSSGVPDRFSGSILGNKAALTITGAQADDESDYYCVLYMGRGIVVFGGGTKLTVLGGSSGEIVLTQSPGTLSLSPGERATLSCRASQSVSSSYLAWYQQKPGQAPRLLIYSASSRATGIPDRFSGSGSGTDFTLTISRLEPEDFAVYFCQQYVGLTGWTFGQGTKVEIKGGGGSGGSGSGGGGSASGSGQMQLVQSGPEVKKPGTSVKVSCKASGFTFTSSAVQWVRQRQRLEWIGWIVVGSGNTNYAQKFQERVTITRDMSTSTAYMELSSLRSEDTAVYYCAAPNCSNVVCYDGFDIWGQGTMVTVSSGGSSGQVQLVESGGGVVQPGRSLRLSCAASGFTLSSYGMHWVRQAPGKGLEWVAVISYDGSNKYYVDSVKGRFTISRDNSKNTLYLQMNSLRAEDTAVYYCRWAYWELLPDYYYGMDVWGQGTTVTVSSASGGSGDKTHTCPPCPAPELLGGPSVFLFPPKPKDTLMISRTPEVTCVVVDVSHEDPEVKFNWYVDGVEVHNAKTKPREEQYNSYVVSVLTVLHQDWLNGKEYKCKVSNKALPAPIEKTISKAKGQPREPQVYTLPPCRDELTKNQVSLWCLVKGFYPSDIAVEWESNGQPENNYKTTPPVLDSDGSFFKKLTVDKSRWQQGNVFSCSVLHEALHSHYTQKSLSLSPG
chain 2: DIQMTQSPSSVSASVGDRVIITCRASQGISSWLAWYQQKPGKAPKVLIYDASSLQSGVPSRFSGSGYGTDFTLTISSLQPEDSATYYCQQAKSFPITFGQGTRLEIKGGSSGEIVLTQSPGTLSLSPGERATLSCRASQSVSSSYLAWYQQKPGQAPRLLIYSASSRATGIPDRFSGSGSGTDFTLTISRLEPEDFAVYFCQQYVGLTGWTFGQGTKVEIKGGGGSGGSGSGGGGSASGSGQMQLVQSGPEVKKPGTSVKVSCKASGFTFTSSAVQWVRQRQRLEWIGWIVVGSGNTNYAQKFQERVTITRDMSTSTAYMELSSLRSEDTAVYYCAAPNCSNVVCYDGFDIWGQGTMVTVSSGGSSGQVQLVESGGGVVQPGRSLRLSCAASGFTFSSYAFHWVRQAPGKGLEWVAVISYDGSNQYYADSVKGRFTISRDNSKNTLYLQMNSLRADDTAVYYCARDLAIAVAGTWHYYNGMDVWGQGTTVTVSSASGGSGDKTHTCPPCPAPELLGGPSVFLFPPKPKDTLMISRTPEVTCVVVDVSHEDPEVKFNWYVDGVEVHNAKTKPREEQYNSYVVSVLTVLHQDWLNGKEYKCKVSNKALPAPIEKTISKAKGQPREPQVCTLPPSRDELTKNQVSLSCAVKGFYPSDIAVEWESNGQPENNYKTTPPVLDSDGSFFLVSKLTVDKSRWQQGNVFSCSVLHEALHSHYTQKSLSLSPG

Key:
[1] = target: SARS-CoV-2 Omicron BA.1 spike protein (SARS-CoV-2, UniProt P0DTC2 14-1273); experiment: cell-based or functional assay
[2] = target: SARS-CoV-2 Omicron BA.4/5 spike protein (F486V) (SARS-CoV-2, UniProt P0DTC2 14-1273); experiment: cell-based or functional assay

| Binder | IC50, pseudovirus neutralization [1] | IC80, pseudovirus neutralization [1] | IC50, pseudovirus neutralization [2] | IC80, pseudovirus neutralization [2] |
| --- | --- | --- | --- | --- |
| B1 | 2 nM | 8 nM | – | – |
| B2 | 2 nM | 8 nM | 8 nM | 30 nM |
| B3 | 2 nM | 7 nM | 9 nM | 17 nM |
